According to patent US7332200B1, “Permeabilizing biofilms” (The General Hospital Corporation, priority 1999, dated 2008):

System: A. viscosus biofilm
Assay: Penetration of methylene blue into A. viscosus biofilms on enamel, with or without a laser stress wave (fluorescence confocal microscopy)

`CN(C)c1ccc2nc3ccc(=[N+](C)C)cc-3sc2c1` [methylene blue] was tested, and the “depth to which fluorescence was observed in the biofilm” value (50 μg/ml methylene blue 5 minutes, single laser-generated stress wave (600 bar peak pressure)) was 600-700 μm and the “depth to which fluorescent intensity was increased in the biofilm” value (control: 50 μg/ml methylene blue 5 minutes, no stress wave) was “no more than 400 μm”.
